From PMC11341029, “Genome-wide CRISPR/Cas9 screen identifies SLC39A9 and PIK3C3 as crucial entry factors for Ebola virus infection” (2024) come the findings set out here.

This assay addresses SLC39A9-6×His-2×Strep (UniProt Q9NUM3). Kind of assay: SPR.

As to GPΔMUC-His (domain or fragment), the Kd was 3000 nM.
